Test results as given in article PMC8847360, “Broad ultra-potent neutralization of SARS-CoV-2 variants by monoclonal antibodies specific to the tip of RBD” (Cell Discovery, 2022).

Target: SARS-CoV-2 WA1/2020 RBD recombinant protein (SARS-CoV-2, UniProt P0DTC2)
Assay: SPR
Settings: both partners purified

B1: 2G1 Fab (Fab, V domains shown)
VH: EVQLLESGGGQIQPGGSLRLSCAASGFSFISNYMSWVRQAPGKGLEWVSVIYSGGSTFYADSVKGRFTISRDKSKNTLYLQMNSLRAEDTAFYYCARGLIRGIIMTGAFDIWDEGTMVTVSS
VL: QSALTQPPSASGSPGQSVTISCTGTSSDVGGSNYVSWYQQHPGKAPKLMISEVSKRPSGVPDRFSGSKSGNTASLTVSGLQAEDEADYYCSSYAGSNNWVFGGGTKLTVL
In the case of B1, the Kd is reported as 0.41 nM, the koff is reported as 0.00105 s⁻¹ and the kon is reported as 2.55e+06 M⁻¹ s⁻¹.
